Compound potency records, mixed from different reports. Data source: NIAID ChemDB in PubChem.

Shared fields: whole-cell or culture tests; species: HIV-1; method: p24; measure: fold resistance

Conditions beyond the fields shown may differ between rows. Fold resistance has wild type as its base.

SMILES,strain,changes,cell line,result
Nc1ncnc2c1ncn2[C@@H]1O[C@H](CO)C[C@@H]1F,RT F77L/F116Y/Q151M,RT-F77L F116Y Q151M,MT-2,3.1
CC(C)(C)NC(=O)[C@@H]1C[C@@H]2CCCC[C@@H]2CN1C[C@@H](O)[C@H](Cc1ccccc1)NC(=O)[C@H](CC(N)=O)NC(=O)c1ccc2ccccc2n1,NL4-3,PR-M46I L63P V82T,MT-4,1
CC(C)(C)NC(=O)[C@@H]1CN(Cc2cccnc2)CCN1C[C@@H](O)C[C@@H](Cc1ccccc1)C(=O)N[C@H]1c2ccccc2C[C@H]1O,Clinical isolate,PR-L10I K14R R41K M46L I54V L63P A71V V82A L90M I93L,PBMC,23.1
O=c1[nH]cnc2c1ncn2[C@H]1CC[C@@H](CO)O1,L214F(RT-L214F),RT-L214F,MT-2,0.9
CCc1cc(NCc2nc3c(Cl)ccc(Cl)c3o2)c(=O)[nH]c1C,NL4-3,RT-K101D L100I,MT-4,>30
Cc1cn([C@H]2C[C@H](N=[N+]=[N-])[C@@H](CO)O2)c(=O)[nH]c1=O,M184V(RT-M184V),RT-M184V,MT-2,0.6
Cc1cn([C@H]2C[C@H](N=[N+]=[N-])[C@@H](CO)O2)c(=O)[nH]c1=O,XM-Q151M,RT-A62V V75I F77C F116Y Q151M,MT-4,6050
Nc1ccn([C@@H]2CS[C@H](CO)O2)c(=O)n1,Recombinant,RT-V75I F77L Q151M,PBMC,0.04
CC(C)CN(C[C@@H](O)[C@H](Cc1ccccc1)NC(=O)O[C@H]1CCOC1)S(=O)(=O)c1ccc(N)cc1,NL4-3,PR-N88D,MT-4,0.25
CC(C)CN(C[C@@H](O)[C@H](Cc1ccccc1)NC(=O)[C@H](CC(N)=O)NC(=O)c1ccc2ccccc2n1)C(=O)NC(C)(C)C,NL4-3,PR-L10R M46I L63P V82T,MT-4,2
Nc1ccn([C@@H]2CO[C@H](CO)S2)c(=O)n1,HXB2,RT-M184V,C8166,2
CC(C)OC(=O)OCOP(=O)(CO[C@H](C)Cn1cnc2c(N)ncnc21)OCOC(=O)OC(C)C,G910-6 AZT-resistant (RT D67N K70R T215F K219Q),RT-D67N K70R T215F K219Q,MT-2,0.0474
Nc1ccn([C@H]2CC[C@@H](CO)O2)c(=O)n1,Recombinant,RT-Q151M,PBMC,0.035
Nc1nc(NC2CC2)c2ncn([C@H]3C=C[C@@H](CO)C3)c2n1,RT-T69G K103N,1(T69G+K103N),MT-2,8.3
CC(C)CN(C[C@@H](O)[C@H](Cc1ccccc1)NC(=O)O[C@H]1CCOC1)S(=O)(=O)c1ccc(N)cc1,Clinical isolate,PR-L10R N37D M46I I62V L63P A71V G73S V77I V82T L90M I93L,PBMC,6
Nc1ncnc2c1ncn2CCOCP(=O)(O)O,P119S(RT-P119S),RT-P119S,MT-2,1.1
Cc1ccnc2c1NC(=O)c1cccnc1N2C1CC1,HXB2,RT-M41L L74V V106A T215Y,C8166,129
CC(C)c1nc(CN(C)C(=O)N[C@H](C(=O)N[C@@H](Cc2ccccc2)C[C@H](O)[C@H](Cc2ccccc2)NC(=O)OCc2cncs2)C(C)C)cs1,Clinical isolate,PR-L10I I15V K20R M36I M46L I54V K55R I62V L63P K70Q V82A L89M,PBMC,>23
Cc1cn([C@H]2C[C@H](N=[N+]=[N-])[C@@H](CO)O2)c(=O)[nH]c1=O,IIIB BCH-189-resistant (RT M184V),RT-M184V,MT-4,0.75
COc1ccc2c(c1)N(C(=O)OC(C)C)[C@@H](CSC)C(=S)N2,A2(RT-L74V G190E),RT-L74V G190E,H9,>1430
O=c1[nH]cnc2c1ncn2[C@H]1CC[C@@H](CO)O1,RT-M184V XM-M184V,RT-M184V,PBMC,0.9
CC(C)Nc1cccnc1N1CCN(C(=O)c2cc3cc(NS(C)(=O)=O)ccc3[nH]2)CC1,B8 (RT K101I K103N Y181C G190A),RT-K101I K103N Y181C G190A,H9,>55.6
Cc1c(O)cccc1C(=O)N[C@@H](CSc1ccccc1)[C@H](O)CN1C[C@H]2CCCC[C@H]2C[C@H]1C(=O)NC(C)(C)C,Clinical isolate,PR-L10I I15V K20R M36I M46L I54V K55R I62V L63P K70Q V82A L89M,PBMC,14.3
O=c1[nH]cnc2c1ncn2[C@H]1CC[C@@H](CO)O1,RT-T69G K103N,1(T69G+K103N),MT-2,2.1

Repeating the first 2 entries:

SMILES | strain | changes | cell line | result
Nc1ncnc2c1ncn2[C@@H]1O[C@H](CO)C[C@@H]1F | RT F77L/F116Y/Q151M | RT-F77L F116Y Q151M | MT-2 | 3.1
CC(C)(C)NC(=O)[C@@H]1C[C@@H]2CCCC[C@@H]2CN1C[C@@H](O)[C@H](Cc1ccccc1)NC(=O)[C@H](CC(N)=O)NC(=O)c1ccc2ccccc2n1 | NL4-3 | PR-M46I L63P V82T | MT-4 | 1